{"source": "PubChem BioAssay AID504761 (Drosophila RNAi Screening Center, 2011)", "purpose": "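Insect host genes that dengue virus relies on to spread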 (primary screen)", "system": "D.Mel-2 cells from Drosophila", "reagents": "long dsRNA against Drosophila genes", "challenge": "infection with dengue virus type 2; dose and infection time not stated", "read-out": "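Per well on two replicate plates, imaging gave the percent of cells positive for viral envelope protein, ranked by infection, and a nuclear count of cells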", "reading the numbers": "infection score: higher = more virus-infected cells; cell count: higher = more cells in the well", "rule for the call": "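Very low infection ranking in both replicate wells (chance probability at most 0.065), then a retest showing infection dropped 1.5-fold or more at p below 0.05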", "meaning of the calls": "active = confirmed: knock-down lowers infection; inactive = not picked or not confirmed", "note": "The screen tested about 22,000 reagents; below is an unselected part of those that have a named target and a result. Over the whole deposit, 116 (0.52%) got an active call. 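Calls depend on retest data that are not deposited; infection was ranked per plate without normalising between plates; the unit of the infection score is not given.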 The raw values are shown without normalisation. Unmarked entries are inactive. The record does not give: the amount of reagent, the time to read-out."}
{"gene":"onecut","DRSC id":"DRSC17175","infection score, replicate 1":9.95,"infection score, replicate 2":2.16,"cell count, replicate 1":5063,"cell count, replicate 2":6023}
{"gene":"onecut","DRSC id":"DRSC26072","infection score, replicate 1":3.07,"infection score, replicate 2":2.32,"cell count, replicate 1":6131,"cell count, replicate 2":6349}
{"gene":"Oatp30B","DRSC id":"DRSC02727","infection score, replicate 1":7.16,"infection score, replicate 2":12.3,"cell count, replicate 1":6191,"cell count, replicate 2":5818}
{"gene":"Larp4B","DRSC id":"DRSC23201","infection score, replicate 1":4.24,"infection score, replicate 2":35.4,"cell count, replicate 1":6292,"cell count, replicate 2":6143}
{"gene":"Larp4B","DRSC id":"DRSC29411","infection score, replicate 1":1.08,"infection score, replicate 2":1.85,"cell count, replicate 1":557,"cell count, replicate 2":595}
{"gene":"CG32017","DRSC id":"DRSC17183","infection score, replicate 1":1.85,"infection score, replicate 2":0.53,"cell count, replicate 1":6420,"cell count, replicate 2":6408}
{"gene":"Jabba","DRSC id":"DRSC06521","infection score, replicate 1":17.4,"infection score, replicate 2":19.6,"cell count, replicate 1":4426,"cell count, replicate 2":4302}
{"gene":"CG31800","DRSC id":"DRSC22525","infection score, replicate 1":1.69,"infection score, replicate 2":1.89,"cell count, replicate 1":6348,"cell count, replicate 2":6439}
{"gene":"CG31800","DRSC id":"DRSC29916","infection score, replicate 1":16.7,"infection score, replicate 2":12.2,"cell count, replicate 1":6483,"cell count, replicate 2":6317}
{"gene":"CG12499","DRSC id":"DRSC14521","infection score, replicate 1":22.5,"infection score, replicate 2":3.07,"cell count, replicate 1":4811,"cell count, replicate 2":6293}
{"gene":"Nubpl","DRSC id":"DRSC03725","infection score, replicate 1":11.3,"infection score, replicate 2":17.5,"cell count, replicate 1":6582,"cell count, replicate 2":6477}
{"gene":"CG1421","DRSC id":"DRSC03707","infection score, replicate 1":7.36,"infection score, replicate 2":12.6,"cell count, replicate 1":6281,"cell count, replicate 2":6219}
{"gene":"Coa8","DRSC id":"DRSC17959","infection score, replicate 2":21.6,"cell count, replicate 1":430,"cell count, replicate 2":5005}
{"gene":"G6P","DRSC id":"DRSC27121","infection score, replicate 1":9.15,"infection score, replicate 2":23.2,"cell count, replicate 1":5857,"cell count, replicate 2":5637}
{"gene":"Ptp10D","DRSC id":"DRSC20272","infection score, replicate 1":3.92,"infection score, replicate 2":2.45,"cell count, replicate 1":6472,"cell count, replicate 2":6205}
{"gene":"Qsox2","DRSC id":"DRSC15287","infection score, replicate 1":1.78,"infection score, replicate 2":1.69,"cell count, replicate 1":6507,"cell count, replicate 2":6553}
{"gene":"Qsox2","DRSC id":"DRSC26634","infection score, replicate 1":2.37,"infection score, replicate 2":6.23,"cell count, replicate 1":6111,"cell count, replicate 2":5840}
{"gene":"CG11905","DRSC id":"DRSC09863","infection score, replicate 1":3.2,"infection score, replicate 2":7.43,"cell count, replicate 1":6776,"cell count, replicate 2":6397}
{"gene":"CG11905","DRSC id":"DRSC24702","infection score, replicate 1":8.86,"infection score, replicate 2":25.3,"cell count, replicate 1":6278,"cell count, replicate 2":5978}
{"gene":"bug","DRSC id":"DRSC07137","infection score, replicate 2":0.75,"cell count, replicate 1":368,"cell count, replicate 2":535}
{"gene":"t-Grip91","DRSC id":"DRSC01506","infection score, replicate 1":0.22,"infection score, replicate 2":0.6,"cell count, replicate 1":6304,"cell count, replicate 2":6355}

Laid out differently: 2 of the entries above.
| gene | DRSC id | infection score, replicate 1 | infection score, replicate 2 | cell count, replicate 1 | cell count, replicate 2 |
| --- | --- | --- | --- | --- | --- |
| CG12499 | DRSC14521 | 22.5 | 3.07 | 4811 | 6293 |
| Nubpl | DRSC03725 | 11.3 | 17.5 | 6582 | 6477 |
